# Measurements reported in PubChem BioAssay AID624099 (ICCB-Longwood, 2012)
# Aim: 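Human genes that papillomavirus E2 requires to repress the HPV18 LCR promoter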 (primary screen)
# Cell system: human C33A cervical carcinoma cells (HPV-negative) stably expressing BPV1 E2 and an HPV18 LCR luciferase reporter
# Reagents: siRNA pool against human genes, 40 nM
# Timing: 72 h
# Detection: 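HPV18 LCR reporter light per well, converted to plate-wise z-scores that exclude control wells, and averaged over triplicate plates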
# Reading the numbers: mean z-score and z-score: higher = stronger reporter signal, weaker E2 silencing
# Hit rule: 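Hit if mean z-score reaches 2 and two or more of three replicate z-scores also reach 2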
# The whole screen tested about 21,000 reagents; shown is a random part of them. Over the whole deposit, 497 (2.4%) were called active. 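Higher z means weaker E2 silencing; only reporter increases were scored, and knock-downs that hurt cell survival may mask genuine repressor factors.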 Entries without a mark were called inactive. The numbers tell different reagents against one gene apart. Reagent sequences are not shown.
target,reagent no.,mean z-score,"z-score, replicate A","z-score, replicate B","z-score, replicate C"
PTGER2,1,1.05,0.73,1.03,1.39
P2RY1,1,-0.02,-0.25,0.12,0.07
RGL3,1,-0.58,-0.87,-0.64,-0.24
CNDP2,1,-0.3,-0.06,-0.56,-0.28
TTC33,1,1.87,1.74,1.8,2.08
CACNA1F,1,1.29,1.23,1.09,1.53
PSMD8,1,-2.42,-2.39,-2.3,-2.57
CYP27B1,1,-0.41,-0.09,-0.61,-0.53
ZNF646,1,1.12,1.03,1.24,1.08
ZFTRAF1,1,1.58,1.72,1.68,1.35
KLRD1,1,1.19,1.4,1.01,1.16
ZDHHC8,1,1.38,1.99,1.32,0.84
NEK7,1,0.36,0.13,0.36,0.61
CHADL,1,1.1,1.14,1.01,1.16
POMT2,1,-0.34,0.01,-0.4,-0.64
EP400P1,1,4.53 (active),4.77,4.54,4.28
LOC388174 (retired record),1,1.39,1.09,1.75,1.33
TIMM8B,1,-0.57,-0.12,-0.57,-1.01
TRHDE,1,-0.42,-0.56,-0.73,0.05
LOC390377 (retired record),1,-0.78,-0.65,-0.66,-1.04
RAB2A,1,1.03,1.09,1.16,0.83
ZNF385B,1,-0.78,-0.86,-0.68,-0.81
NUPR1,1,3.89 (active),3.97,3.5,4.2
LOC153134 (retired record),1,0.36,0.35,0.48,0.24
LRAT,1,-0.57,-0.58,-0.64,-0.5
FGF7P6,1,-0.12,0.14,-0.01,-0.49
ANKRD54,1,-0.58,-0.71,-0.38,-0.64
TEX30,1,0.45,0.57,0.52,0.25
SALL4,1,1.63,1.91,1.59,1.39
DFFA,1,0.77,0.75,0.77,0.79
TOP1,1,1.8,1.29,1.83,2.3
LOC151451 (retired record),1,0.47,0.67,0.36,0.39
NOL4L-DT,1,0.29,0.01,0.56,0.31
NEURL2,1,-0.52,-0.12,-0.64,-0.78
LINC02906,1,-0.14,-0.24,-0.33,0.14
TBC1D1,1,0.87,1.02,0.71,0.87
TBC1D1,2,-0.49,-0.44,-0.3,-0.72
SGCG,1,-0.67,-0.73,-0.67,-0.61
LIMK2,1,2.88 (active),2.12,3.05,3.45
MARCKS,1,0.49,1.09,-0.19,0.58
LOXL4,1,-0.18,-0.45,-0.01,-0.08
KIAA1614,1,1.99,1.38,2.32,2.27
SLCO1A2,1,-0.6,-0.61,-0.54,-0.64
DNAH10,1,0.22,0.73,0.11,-0.16
DNAH10,2,-0.79,-1.02,-0.94,-0.42
DNAH10,3,0.93,1.24,0.77,0.79
ENPEP,1,0.51,0.68,0.32,0.53
FAM90A15,1,0.21,0.38,-0.07,0.31
PSMC4,1,-1.33,-1.31,-1.22,-1.47
LOC153959 (retired record),1,0.18,-0.03,0.4,0.16
SULT2A1,1,-0.22,-0.11,-0.33,-0.23
TFEC,1,-0.18,-0.31,-0.38,0.16
DRGX,1,-1.43,-1.46,-1.39,-1.45
SYDE1,1,0.23,0.34,0.35,-0.01
RAG2,1,0.17,0.28,0.1,0.13
SPPL2B,1,-0.57,-0.61,-0.65,-0.44
LOC402340 (retired record),1,0.73,0.7,0.7,0.77

Looked up above.
ZFTRAF1, z-score, replicate C: 1.35
Value of EP400P1 in “z-score, replicate C”: 4.28 (active)
MARCKS, z-score, replicate B = -0.19
TEX30, z-score, replicate C: 0.25
For “z-score, replicate A”, RGL3 is entered as -0.87
For “z-score, replicate C”, CHADL has 1.16
